# PubChem BioAssay AID1259414 – Drosophila RNAi Screening Center – 2018
# Purpose: 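Genome-wide screen for host control of endosymbiont load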 (primary screen)
# Cell system: Drosophila JW18 cells infected with Wolbachia
# Knock-down reagent: long dsRNA against Drosophila genes, 0.25 µg dsRNA per well of a 384-well plate
# Timing: 5 days
# Challenge: cells persistently infected with Wolbachia before knock-down; no added drug
# Measured: 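Imaged fluorescence in situ signal for Wolbachia 23S rRNA per DAPI-counted host cell, given as a robust z-score within each plate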
# Reading the numbers: Wolbachia per cell robust z: higher = more Wolbachia per host cell than the plate typical
# Rule for the call: 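Hit when robust z is 1.5 or more, or -1.5 or less, in at least two of three replicates; excludes dsRNAs with several or no targets, genes not expressed in JW18 and well A1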
# In all, the deposit lists about 24,000 reagents; below is a random part of those with a known target gene and a result. Over the whole deposit, about 1,210 (5%) are marked active. 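Inactive calls also include excluded dsRNAs with several or no targets, genes unexpressed in JW18, and well A1, regardless of score.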 Names joined by + are all predicted targets of the reagent.
target,DRSC id,"Wolbachia per cell robust z, rep 1","Wolbachia per cell robust z, rep 2","Wolbachia per cell robust z, rep 3",call
CG14490 (GeneID 37041),DRSC06461,-2.27,0.734,-1.77,inactive
CG14490 (GeneID 37041),DRSC27641,-0.0858,-2.19,-0.0828,inactive
Dera (GeneID 36358),DRSC07207,0.497,-0.0413,-1.27,inactive
Dera (GeneID 36358),DRSC21336,0.347,0.421,0.58,inactive
Dera (GeneID 36358),DRSC26996,-0.109,-1.14,-0.0409,inactive
Sfp23F (GeneID 8674054),DRSC40644,-1.4,-0.985,-1.38,inactive
Nadk1a (GeneID 36506),DRSC05431,0.246,2.17,3.36,active
Nadk1a (GeneID 36506),DRSC06963,0.433,-0.143,-4.47,inactive
Adi1 (GeneID 326189),DRSC10945,0.0958,0.867,-0.297,inactive
Adi1 (GeneID 326189),DRSC21485,0.613,0.568,1.23,inactive
CG6621 (GeneID 41319),DRSC16076,-1.2,-0.446,-2.08,inactive
CG6621 (GeneID 41319),DRSC26979,1.16,-0.718,1.09,inactive
4E-T (GeneID 43836),DRSC17201,0.506,-1.08,-0.445,inactive
4E-T (GeneID 43836),DRSC17208,0.574,-0.88,-0.481,inactive
mh (GeneID 32480),DRSC20168,-0.0688,0.654,-0.64,inactive
Rfx (GeneID 41266),DRSC16820,0.143,-1.26,0.315,inactive
Prim1 (GeneID 38942),DRSC11137,0.612,1.08,0.471,inactive
CG6576 (GeneID 39003),DRSC10663,0.713,0.716,0.396,inactive
CG6576 (GeneID 39003),DRSC28084,-0.157,-0.19,-0.38,inactive
CG33460 (GeneID 3885588),DRSC05570,-0.678,0.972,-0.0667,inactive
CG8079 (GeneID 36689),DRSC07070,-0.995,-1.87,0.692,inactive
CG8079 (GeneID 36689),DRSC07071,0.129,0.129,0.958,inactive
NPF (GeneID 42018),DRSC17019,-0.548,0.0024,0.0253,inactive
CG12715 (GeneID 32252),DRSC19492,-0.0641,-0.485,0.546,inactive
Tnpo (GeneID 38721),DRSC11309,1.42,3,1.73,active
Tnpo (GeneID 38721),DRSC25104,1.14,2.29,4.39,active
CG15073 (GeneID 37155),DRSC06506,-3.67,0.742,-1.49,inactive
CG15073 (GeneID 37155),DRSC27105,-6.98,-0.798,-0.89,inactive
SNRPG (GeneID 32636),DRSC20207,-4.12,0.984,0.733,inactive
Sfp36F (GeneID 8674048),DRSC41427,1.1,1.39,0.505,inactive
Shrm (GeneID 36592),DRSC06438,-2.36,1.34,-0.467,inactive
Shrm (GeneID 36592),DRSC07221,-1.29,0.553,1.07,inactive
Shrm (GeneID 36592),DRSC23067,-1.57,-2.06,-4,active
Shrm (GeneID 36592),DRSC25072,-8.4,-0.672,-0.13,inactive
Shrm (GeneID 36592),DRSC27498,-0.598,0.101,-0.935,inactive
CG31156 (GeneID 42669),DRSC15753,0.417,-0.055,-1.6,inactive
CG31156 (GeneID 42669),DRSC15755,0.509,-1.7,0.563,inactive
CG11898 (GeneID 43451),DRSC14432,-0.678,-3.13,-6.57,inactive
CG11898 (GeneID 43451),DRSC27906,1.27,1.31,0.0445,inactive
CG8010 (GeneID 32921),DRSC20072,-1.41,0.258,0.669,inactive
CG8010 (GeneID 32921),DRSC26277,-2.4,-0.277,-0.35,inactive
CR33491 + CR33498 + CR33496 + 1 more,DRSC22969,-4.08,-1.73,-0.682,active
E(spl)m5-HLH (GeneID 43158),DRSC16695,-2.83,0.525,0.000811,inactive
E(spl)m5-HLH (GeneID 43158),DRSC28232,0.776,0.521,0.192,inactive
CG10126 (GeneID 41579),DRSC14191,-1.91,-0.925,-0.941,inactive

Called active, of those listed so far:
target,DRSC id,"Wolbachia per cell robust z, rep 1","Wolbachia per cell robust z, rep 2","Wolbachia per cell robust z, rep 3",call
Nadk1a (GeneID 36506),DRSC05431,0.246,2.17,3.36,active
Tnpo (GeneID 38721),DRSC11309,1.42,3,1.73,active
Tnpo (GeneID 38721),DRSC25104,1.14,2.29,4.39,active
Shrm (GeneID 36592),DRSC23067,-1.57,-2.06,-4,active
CR33491 + CR33498 + CR33496 + 1 more,DRSC22969,-4.08,-1.73,-0.682,active

Additional results follow.
target,DRSC id,"Wolbachia per cell robust z, rep 1","Wolbachia per cell robust z, rep 2","Wolbachia per cell robust z, rep 3",call
KLHL18 (GeneID 41458),DRSC15496,1.25,-7.47,0.985,inactive
KLHL18 (GeneID 41458),DRSC26629,-1.27,-0.636,-0.0935,inactive
CG6928 (GeneID 39367),DRSC10749,1.2,-0.176,-0.96,inactive
gd (GeneID 32159),DRSC20336,-5.06,0.421,-0.764,inactive
ND-B14.5B (GeneID 33528),DRSC00346,0.372,-1.48,0.48,inactive
Odc2 (GeneID 35767),DRSC07483,0.0407,0.704,-0.183,inactive
Odc2 (GeneID 35767),DRSC26384,0.577,0.493,-0.585,inactive
Odc2 (GeneID 35767),DRSC38969,1.66,0.829,1.56,inactive
CG32988 (GeneID 318274),DRSC02692,0.26,0.166,-4.25,inactive
Ccp84Ag (GeneID 40819),DRSC12592,0.466,-0.904,-2.58,inactive
Ccp84Ag (GeneID 40819),DRSC22085,-0.262,0.355,0.382,inactive
Ccp84Ag (GeneID 40819),DRSC30073,-0.969,-1.18,-0.391,inactive
Dhrs4 (GeneID 38598),DRSC09773,0.953,0.275,-1.42,inactive
YL-1 (GeneID 34516),DRSC02765,0.052,-1.86,0.711,inactive
YL-1 (GeneID 34516),DRSC23798,-2.09,-9.22,-0.883,active
CG16820 (GeneID 34730),DRSC02522,-0.988,-1.24,-0.453,inactive
ZnT77C (GeneID 40271),DRSC11766,-0.691,0.572,-2.17,inactive
ZnT77C (GeneID 40271),DRSC11767,0.328,-0.792,0.48,inactive
CG8852 (GeneID 33577),DRSC00719,-1.12,-3.56,-0.68,inactive
CG8852 (GeneID 33577),DRSC24465,1.23,-0.075,-0.316,inactive
CtsF (GeneID 40628),DRSC12056,-0.696,-0.47,-0.569,inactive
CtsF (GeneID 40628),DRSC12195,-1.61,-0.858,-1.73,active
CtsF (GeneID 40628),DRSC12196,0.752,0.855,-0.707,inactive
